Measured values as given in the supplement of paper PMC9931576.
Human monoclonal antibodies against the spike receptor-binding domain (heavy:light variable regions). IC50 against pseudoviruses bearing the spike of naturally observed variants; lower = stronger; >10 µg/ml means not reached at the top dose. No active / inactive call. The stated detection limit is 0.0005 µg/ml; values near or below 0.001 µg/ml lie at the floor of the assay.

B1: BD56-1289 (protein)
chain 1: QVQLQESGPGLVRPSQTLSLTCTVSGGSIRNEVYYWSWIRQPPGKGLEWIGYIHNSGNTYYNPSLKSRAAISVETSKNQFSLKLNSVTAADTAVYYCARVDVGGRLVSTFDSWGQGTLVTVSS
chain 2: NFMLTQPHSVSESPGMTVTISCTGSSGSIASNYVQWYQQRPGSAPTTVIYENNQRPSGVPDRFSGSIDSSSNSASLTISGLKTEDEADYYCQSYDDSNIAVFGGGTQLTVL
B2: BD56-1291 (protein)
chain 1: QVQLVQSGADVKKPGSSVKVSCKASGDTFSSHSISWVRQAPGQGPEWMGTIIPTLGIANIAQRFQGRVTITADKSTSTAYMEVSSLRSEDTAVYFCAKSYYYESRGLAADAFDIWGQGTMVTVSS
chain 2: QSVLAQPPSVAGAPGQRVTISCTGSNSNIGAGYDVHWYQQLPGTAPKFLIFGNNNRPSGVPDRFSGSKSGTSASLAITGLQAEDEADYYCQSYDSSLIGPVFGGGTKLTVL
B3: BD56-1292 (protein)
chain 1: QLQLQESGPGLVKPSETLSLTCTVSGGSISSSSYYWGWIRQPPGKGLEWIGNIYYSGTSYYKPSLKSRVTISVDTSKNQFSLKLTSVTAADTAVYYCARRGRIVGSTVVPFAFDIWGQGTMVTFSS
chain 2: QSALTQPASVSGSPGQSITVSCTGTSSDVGGYDHVSWYQQHPGKAPKLMIYDVINRPSGVSNRFSGAKSGNTASLTISGLQSEDEADYYCSSYTTSSTLFGGGTKLTVL
B4: BD56-1294 (protein)
chain 1: QVQLVESGGGVVQPGRSLRLSCAASGFTFRSYGMYWVRQAPGKGLEWVAVISYDGDDKYYADSVKGRFTISRDNSKNTLYLQMNSLRVVDTAVYYCAKGGGGPYCGGGNCYSTYFDYWGQGTLVTVSS
chain 2: DIQMTQSPSTLSASVGDRVTITCRASQSLSSWLAWYQQKPGKAPKLLIYEASSLESGVPSRFSGSGSGTEFTLTISGLQPDDFATYYCQQYNSYSAFGQGTKLEIK
B5: BD56-1295 (protein)
chain 1: QVQLVQSGAEVKKPGSSVKVSCKASGGTFSSSAINWVRQAPGQGLEWLGRTIPILDITNYAQKFQDRVTLSADKSTGTVYMELSGLRSDDTAVYYCARDQTPVTTFGIGHYYGMDVWGQGTTVTVSS
chain 2: DIQMTQSPSTLSASVGDRVTITCRASQRIDNWVAWYQQKPGKAPKLLIYDASSLLIGVPSRFSGSGSGTEFILAISSLQPDDFATYYCQQYNSHPMFGQGTKVEIK
B6: BD56-1299 (protein)
chain 1: QVQLVESGGGVVRPGRSLRLSCATSGFTFGDYGIHWVRQAPGKVLEWVAVISDDGGYKSYSDSVKGRFTISRDNSKNTVYLQMTNLRAEDTAVYYCARDYGDYVTHFDYWGQGTLVTVSS
chain 2: DIQMTQSPSSLSASVGDRVTITCRASQSVIKYLNWYQQRPGRAPKLLIYDASILESGVPSRFSGSGSGTDFTLTISSLHLEDFATYYCQQSYNTPPWTFGQGTRVEIK
B7: BD56-1301 (protein)
chain 1: QVQLVQSGADVKKPGSSVKVSCKASGGTFSSYSIVWVRQAPGQGLEWMGRIIPILDVANYAQLFQGRVTITADRSANTAYLEVSSLRSEDTAVYYCARETGTTGTPWFIPWGQGTLVIVSS
chain 2: QSVLTQPPSVSGAPGQRVTISCTGSDSNIGAGYDVHWYQKLPGTAPKLLIYGNNNRPSGVPDRFTGSKSDTSVSLAITGLQAEDEADYYCQSYDSGLIGVIFGGGTKLTVL
B8: BD56-1304 (protein)
chain 1: QITLKESGPTLVKPTQTLTLTCTFSGFSLSTSGVGVGWIRQPPGKALEWLALIYWDDDRRYSPSLKSRLTITKDTSKNQVVLTMTNMDPVDTGTYYCAHNADNSASGSYRDENWFDPWGQGTLVTVSS
chain 2: SYELTQPPSVSVSPGQTARITCFGDAWPNQYAYWYQQKPGQAPVLVIYKDSERPSGIPERFSGSSSGTTVTLTISGVQAEDEADYFCQSADSSGVVFGGGTKLTVL
B9: BD56-1306 (protein)
chain 1: EVQLVESGGGLVQPGRSLRLSCAASGFTFDDYAMQWVRLAPGKGLEWISGISWNSGGIAYADSVKGRFTVSRDNAKNSLYLQMNSLRPDDTALYYCAKIGSRSAFVRGYLDLWGRGTLVTVSS
chain 2: EIVMTQSPATLSVSPGERATLSCRASQSVSSNLAWYQQKPGQAPRLLIYGASTRATGIPARFSGSGSGTEFTLTISSLQSEDFAVYYCQHYNNWPPEITFGPGTKVDIK
B10: BD56-1307 (protein)
chain 1: EVQLVESGGGLVRPGGSLRLSCAASGFTFSSFSMNWVRQAPGKGLEWVSSISSGGGHIYYADSVKGRFTISRDNAKNSLYLQMNSLRAEDTAVFYCARDSEWGGDILTGFSHIFDYWGRGTLVTVSS
chain 2: DIQMTQSPSSLSASVGDRVTITCRASQIISSSLNWYQQKPGEAPKLLIYAFSLHSGVPSRFSGSGSGTDFTLTISSLQPEDFATYYCQQSYSTPPTFGGGTKVEIK
B11: BD56-1323 (protein)
chain 1: QVQLVQSGAEVKKPGASVKLSCKASGYIFTNYYLHWVRQGPGQGPEWMGIINPSGGSRRYAQKFQGRVTMNRDTSTSTVYMELSSLRSEDTAVYYCAREVVVPAAGYMDVWGKGTTVTVSS
chain 2: SYVLTQPPSVTVAPGKTATLTCEGDNIGSKSVHWYQQKPGQAPVLVVYDDSDRPSGIPERFSGSNSGNTATLTISWVEAGDEADYFCQVWESTSDHFYVFGTGTKVTVL
B12: BD56-1326 (protein)
chain 1: EVQVVESGGGLVKPGGSLRLSCAASGFNFGSYNMNWLRQAPGKGLEWVSSIGTSSSYRYYADSIKGRFTISRDNAKNSLYLQMNSLRAEDTAVYYCARDSEWGGDILTGSSHIFDYWGQGTVVTVSS
chain 2: DIQMTQSPSSLSVSVGDRVTITCRASQTISSSLNWYHQKPGKAPKLLIYGAISLQSGVPSRFSGSGSGTDFTLTISSLQLEDFATYYCQQSYSSPPTFGGGTKVEIK

The binders below were run against SARS-CoV-2 Omicron BA.1 spike pseudovirus (assay: pseudovirus neutralization IC50; higher = weaker neutralization).
Description: (§1)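 Single-round VSV luciferase pseudovirus mixed with antibody dilutions for 1 h and put on Huh-7 cells for about a day; IC50 from the dose curve.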

Binder	pseudovirus neutralization IC50 [µg/mL]
B1	0.014
B2	0.18
B3	0.193
B4	> 10
B5	0.0114
B6	0.539
B7	0.167
B8	> 10
B9	1.49
B10	> 10
B11	> 10
B12	> 10

The binders below were run against SARS-CoV-2 Omicron BA.2 spike pseudovirus in the same assay as above.
Description: as §1

Binder	pseudovirus neutralization IC50 [µg/mL]
B1	0.0084
B2	0.0814
B3	0.151
B4	> 10
B5	0.00528
B6	0.58
B7	0.136
B8	> 10
B9	1.72
B10	> 10
B11	> 10
B12	> 10

The binders below were run against SARS-CoV-2 Omicron BA.2.75 spike pseudovirus in the same assay as above.
Description: as §1

Binder	pseudovirus neutralization IC50 [µg/mL]
B1	0.011
B2	0.148
B3	0.617
B4	> 10
B5	0.0082
B6	4.12
B7	0.154
B8	> 10
B9	> 10
B10	> 10
B11	> 10
B12	> 10

These binders were tested against SARS-CoV-2 Omicron BA.5 spike pseudovirus in the same assay as above.
Description: as §1

Binder	pseudovirus neutralization IC50 [µg/mL]
B1	0.0137
B2	2.31
B3	0.196
B4	> 10
B5	> 10
B6	2.88
B7	> 10
B8	> 10
B9	3.65
B10	> 10
B11	> 10
B12	> 10

The binders below were run against SARS-CoV-2 Omicron BQ.1.1 spike pseudovirus in the same assay as above.
Description: as §1

Binder	pseudovirus neutralization IC50 [µg/mL]
B1	0.0167
B2	3.5
B3	1.72
B4	> 10
B5	> 10
B6	3.6
B7	> 10
B8	> 10
B9	5.61
B10	> 10
B11	> 10
B12	> 10

Each binder was assayed against SARS-CoV-2 Omicron XBB spike pseudovirus in the same assay as above.
Description: as §1

Binder	pseudovirus neutralization IC50 [µg/mL]
B1	0.0164
B2	2.17
B3	1.65
B4	> 10
B5	> 10
B6	1.35
B7	> 10
B8	> 10
B9	> 10
B10	> 10
B11	> 10
B12	> 10

These binders were tested against SARS-CoV-2 early D614G spike pseudovirus in the same assay as above.
Description: as §1

Binder	pseudovirus neutralization IC50 [µg/mL]
B1	0.0605
B2	0.441
B3	0.193
B4	1.02
B5	0.032
B6	0.577
B7	0.182
B8	1.72
B9	> 10
B10	> 10
B11	1.16
B12	> 10
